According to article PMC5531588, “Staphylococcus aureus single-stranded DNA-binding protein SsbA can bind but cannot stimulate PriA helicase”:

Target: T1, SaSsbA (Staphylococcus aureus subsp. aureus ED98) (UniProt A0A0D1JHQ1)
T1 sequence (looked up, limits assumed): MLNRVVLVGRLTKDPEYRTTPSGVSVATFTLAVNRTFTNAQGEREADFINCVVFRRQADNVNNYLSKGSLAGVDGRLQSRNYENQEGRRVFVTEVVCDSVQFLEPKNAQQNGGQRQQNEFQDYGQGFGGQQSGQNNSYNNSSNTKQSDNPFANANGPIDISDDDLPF
Assay: EMSA
Conditions: EMSA: 20 mM Tris-HCl pH 8.0, 100 mM NaCl (or 0.4 M NaCl), 1.7 nM DNA, 25 C, 30 min, native 8% PAGE in TBE at 4 C, recombinant protein, label: 32P (5' end, T4 PNK), single-stranded DNA

Row | Sequence | half-maximal binding (0.4 M NaCl) [nM] | half-maximal binding (100 mM NaCl) [nM]
1 | TTTTTTTTTTTTTTTTTTTTTTTTTTTTTTTTTTTTTTTT [dT40] | 180 | –
2 | TTTTTTTTTTTTTTT [dT15] | – | > 2000

The exact form of at least one protein or probe is not confirmed. Protein sequences can lack the tags named with them.
